Data on one molecule can be found in PMC8943039, “Neuron-recognizable characteristics of peptides recombined using a neuronal binding domain of botulinum neurotoxin” (Scientific Reports, 2022).

This test addresses EGFP-RBDʹ (EGFP-His6-linker-receptor binding domain of CDC297 BoNT/A1) (C. botulinum, UniProt A2I2R4 871-1296).

The Kd is the free concentration of one partner at which half of the binding sites on the other are occupied at equilibrium, for simple one-to-one binding. Read a low Kd as tighter binding. For orientation: koff means the first-order rate constant of dissociation. Higher therefore signals fast dissociation. The kon is the rate constant with which the complex forms.

B1: GST-tagged luminal domain of synaptic vesicle glycoprotein 2C (domain or fragment)
chain: DVIKPLQSDEYALLTRNVERDKYANFTINFTMENQIHTGMEYDNGRFIGVKFKSVTFKDSVFKSCTFEDVTSVNTYFKNCTFIDTVFDNTDFEPYKFIDSEFKNCSFFHNKTGC
Molecule B1 showed a Kd of 5.45 µM, a koff of 0.0287 s⁻¹ and a kon of 5260 M⁻¹ s⁻¹.
